Laboratory results from PMC7590151 (International Journal of Molecular Sciences, 2020).
Some peptides are written in HELM: one residue between dots, names in brackets for other building blocks, links after the first $.

Assay: general procedure: Fmoc solid-phase peptide synthesis; H-Rink amide ChemMatrix, 0.47 mmol/g; PyBOP/OxymaPure/DIPEA (printed for CF incorporation)
Details: 220 nm

Substance	final HPLC purity (conjugation step) [%]	final HPLC purity (whole synthesis) [%]
PEPTIDE1{[ac].C.G.R.K.K.R.R.Q.R.R.R.[am]}|CHEM1{[DoxMCC]}$PEPTIDE1,CHEM1,2:R3-1:R1$$$V2.0	>95	–
PEPTIDE1{[gCBAA].[cAmpGp].[gCBAA].[cAmpGp].[gCBAA].[cAmpGp].[gCBAA].[cAmpGp].[gCBAA].[cAmpGp].[gCBAA].[cAmpGp].[am]}$$$$V2.0	–	>95
PEPTIDE1{[gCBAA].[cAmpGp].[gCBAA].[cAmpGp].[gCBAA].[cAmpGp].[gCBAA].[cAmpGp].[gCBAA].[cAmpGp].[gCBAA].[cAmpGp].[gCBAA].[cAmpGp].[am]}$$$$V2.0	–	>97
PEPTIDE1{[gCBAA].[tAmpGp].[gCBAA].[tAmpGp].[gCBAA].[tAmpGp].[gCBAA].[tAmpGp].[gCBAA].[tAmpGp].[gCBAA].[tAmpGp].[am]}$$$$V2.0	–	>96
PEPTIDE1{[gCBAA].[tAmpGp].[gCBAA].[tAmpGp].[gCBAA].[tAmpGp].[gCBAA].[tAmpGp].[gCBAA].[tAmpGp].[gCBAA].[tAmpGp].[gCBAA].[tAmpGp].[am]}$$$$V2.0	–	>96
